Reference: PubChem BioAssay AID624099 (ICCB-Longwood, 2012)

Purpose: 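Knock-downs relieving repression by E2 of an HPV18 LCR luciferase reporter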 (primary screen)
System: human C33A cervical carcinoma cells (HPV-negative) stably expressing BPV1 E2 and an HPV18 LCR luciferase reporter
Reagent: siRNA pool against human genes, 40 nM
Duration: 72 h
Read-out: 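Per-well luciferase luminescence, z-scored on each plate against the plate mean and SD with control wells left out, then averaged across three replicate plates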
Reading the numbers: mean z-score and z-score: higher = stronger reporter signal, weaker E2 silencing
Rule for the call: 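Hit if mean z-score reaches 2 and two or more of three replicate z-scores also reach 2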
The deposit covers about 21,000 reagents; shown is a part drawn at random. 497 of all reagents (2.4%) count as active. 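Higher z means weaker E2 silencing; only reporter increases were scored, and knock-downs that hurt cell survival may mask genuine repressor factors.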 Entries without a mark were called inactive.

MSC → mean z-score = 0.25; z-score, replicate A = 0.18; z-score, replicate B = 0.24; z-score, replicate C = 0.34
SLC7A6OS → mean z-score = -0.8; z-score, replicate A = -1.42; z-score, replicate B = -0.35; z-score, replicate C = -0.64
NTNG2 → mean z-score = -0.69; z-score, replicate A = -0.63; z-score, replicate B = -0.8; z-score, replicate C = -0.65
ATRAID → mean z-score = -0.01; z-score, replicate A = -0.03; z-score, replicate B = -0.1; z-score, replicate C = 0.09
DIAPH2 → mean z-score = 1.67; z-score, replicate A = 1.67; z-score, replicate B = 1.62; z-score, replicate C = 1.71
SPZ1 → mean z-score = 1.2; z-score, replicate A = 0.87; z-score, replicate B = 1.7; z-score, replicate C = 1.02
EFCC1 → mean z-score = 0.35; z-score, replicate A = 0.06; z-score, replicate B = 0.43; z-score, replicate C = 0.58

Laid out differently: results already given.
{"Target gene":"ATRAID","mean z-score":-0.01,"z-score, replicate A":-0.03,"z-score, replicate B":-0.1,"z-score, replicate C":0.09}
{"Target gene":"DIAPH2","mean z-score":1.67,"z-score, replicate A":1.67,"z-score, replicate B":1.62,"z-score, replicate C":1.71}

The results go on:
PPIAP24 → mean z-score = 1.23; z-score, replicate A = 1.07; z-score, replicate B = 1.09; z-score, replicate C = 1.54
LCN6 → mean z-score = 0.78; z-score, replicate A = 1.4; z-score, replicate B = 0.58; z-score, replicate C = 0.36
LOC400669 (retired record) → mean z-score = 0.27; z-score, replicate A = -0.1; z-score, replicate B = 0.52; z-score, replicate C = 0.39
LOC389353 (retired record) → mean z-score = 1.57; z-score, replicate A = 1.65; z-score, replicate B = 1.32; z-score, replicate C = 1.74
NANOGNB → mean z-score = 0.53; z-score, replicate A = 0.5; z-score, replicate B = 0.37; z-score, replicate C = 0.71
MED20 → mean z-score = 0.02; z-score, replicate A = 0.15; z-score, replicate B = 0.11; z-score, replicate C = -0.21
F11-AS1 → mean z-score = 0.26; z-score, replicate A = 0.1; z-score, replicate B = 0.23; z-score, replicate C = 0.45
